Values from PubChem BioAssay AID504761 (Drosophila RNAi Screening Center, 2011).

Aim: 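Genome-wide fly cell screen for genes dengue virus requires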 (primary screen)
System: D.Mel-2 cells from Drosophila
Reagent: long dsRNA against Drosophila genes
Conditions: infection with dengue virus type 2; dose and infection time not stated
Measured: 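Per well on two replicate plates, imaging gave the percent of cells positive for viral envelope protein, ranked by infection, and a nuclear count of cells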
Scale: infection score: higher = more virus-infected cells; cell count: higher = more cells in the well
Rule for the call: 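Very low infection ranking in both replicate wells (chance probability at most 0.065), then a retest showing infection dropped 1.5-fold or more at p below 0.05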
Meaning of the calls: active = confirmed: knock-down lowers infection; inactive = not picked or not confirmed
In all, the deposit lists about 22,000 reagents; this is a random part of those with a known target gene and a result. In the full data, 116 (0.52%) got an active call. 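Calls depend on retest data that are not deposited; infection was ranked per plate without normalising between plates; the unit of the infection score is not given.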 Raw values are not corrected between plates. Entries without a mark were called inactive. The record does not give: the amount of reagent, the time to read-out.

no.	gene knocked down	dsRNA	infection score, replicate 1	infection score, replicate 2	cell count, replicate 1	cell count, replicate 2
1	CG10317	DRSC14229	2.65	5.51	6264	6350
2	CG14200	DRSC19555	3.75	2.53	2851	3321
3	CG14200	DRSC22979	1.51	20.3	6232	6470
4	CG14200	DRSC25784	1.54	4.33	6418	6312
5	CG8560	DRSC10994	3.83	2.17	6786	6593
6	CG8560	DRSC23854	7.88	3.7	6164	5646
7	Coq5	DRSC19849	15.2	9.96	6165	6735
8	Coq5	DRSC21371	2.51	2.64	6258	6517
9	Coq5	DRSC29685	20.7	18.3	5421	2847
10	Rcd7	DRSC10100	2.75	7.69	6401	6644
11	GCC185	DRSC15493	5.06	9.51	6467	6633
12	nac	DRSC16520	14.4	5.2	5821	6918
13	Jon25Bi	DRSC03434	1.74	5.34	5905	6426
14	Jon25Bi	DRSC25181	4.98	3.43	5524	5604
15	CG2104	DRSC12304	2.54	3.53	6146	6209
16	Ero1L	DRSC08660	11.7	8.68	5859	5701
17	CG32652 (retired record)	DRSC18942	35.2	3.9	6024	6684
18	CG32652 (retired record)	DRSC22662	3.71	7.25	6114	5914
19	CG32652 (retired record)	DRSC27195	25.8	21.8	6078	6621
20	su(sable)	DRSC18839	4.98	5.82	6890	5948
21	zip	DRSC04725	4.86	8.6	6358	5407
22	zip	DRSC22489	1.99	16.5	5791	4457
23	zip	DRSC28416	17.3	10	3799	4089

Sorted by “infection score, replicate 1” (descending): some entries from above.
gene knocked down	dsRNA	infection score, replicate 1	infection score, replicate 2	cell count, replicate 1	cell count, replicate 2
CG8560	DRSC10994	3.83	2.17	6786	6593
CG14200	DRSC25784	1.54	4.33	6418	6312
